Results published in US11246922B1 (Elidan America, LLC., priority 2021, dated 2022).

Assay: peptide made by a vendor (peptide synthesis; ChemMatrix Rink Amide resin; 2-chlorotrityl chloride resin; DIC/Cl-HOBt)
Settings: whole synthesis

| Sequence | final purity (method not given) (run 1) | final purity (method not given) (run 2) |
| --- | --- | --- |
| CVNDTFAGSTFISDEVD | 98.76% | >98% |
| CVNDTFAGSTFISDEVDGVDEVAKKKSK | 98.25% | >98% |

End groups of sequences in plain letters are not given here.
